Data reported in patent US8581605B2 (priority 2006, dated 2013).

The chains behind the UniProt entries cited, without tags or fusion partners. Where a name states a change or a piece, a line headed by the entry shows the natural chain unless it says otherwise.
UniProt P09616: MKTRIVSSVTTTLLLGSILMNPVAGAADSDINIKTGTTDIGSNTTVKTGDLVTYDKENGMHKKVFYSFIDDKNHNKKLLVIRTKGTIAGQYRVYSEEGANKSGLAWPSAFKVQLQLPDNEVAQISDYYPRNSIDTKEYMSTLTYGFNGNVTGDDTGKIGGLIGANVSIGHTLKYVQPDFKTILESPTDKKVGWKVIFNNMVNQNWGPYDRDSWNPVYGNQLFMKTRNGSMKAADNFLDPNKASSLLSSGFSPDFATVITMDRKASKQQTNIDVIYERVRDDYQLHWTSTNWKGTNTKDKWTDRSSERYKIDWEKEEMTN

Experiments:
αHL channels = αHL channels (Staphylococcus aureus, UniProt P09616); assay: AC (phase-sensitive) recording of s7βCD detection by αHL channels in a spanning lipid bilayer on a GNP membrane; settings: −30 mV DC bias, 2 αHL channels
alpha-HL channel = alpha-HL channel (Staphylococcus aureus, UniProt P09616); assay: Electrostatic trapping of s7-βCD in the alpha-HL channel as a function of transmembrane voltage

hepta-6-sulfato-β-cyclodextrin was tested, and the “decrease in conductance when s7 βCD binds to the channel” value (αHL channels) was 70-80%, the “dissociation from the protein” value (alpha-HL channel; voltages greater than −0.20 V, until voltage is reduced) was “does not dissociate” and the duration of trapping (alpha-HL channel; voltages greater than −200V (so in the source)) was “extended periods of time (e.g., hours)”. For the same substance, the “residence time within the lumen of the protein” value (alpha-HL channel; −0.04 V across the lipid bilayer membrane (trans relative to cis)) was 1 s, the “binding events in alpha-HL channel” value (alpha-HL channel; −40 mV) was “reversible stochastic” and the “electrostatic trapping in alpha-HL channel” value (alpha-HL channel; −120 and −200 mV, DPhPC bilayer, 50 μM s7-βCD) was “Stable trapping”.
